Test results: patent US20230181697A1 (published 2023)

Biological target: T1, S1-protein variant of SARS-CoV-2 containing a single mutation (N501Y) (SARS-CoV-2, UniProt P0DTC2 16-685)
T1 construct: domain: S1 subunit; also called S1-protein with a single mutation N501Y
Test: ELISA, S1 N501Y immobilized, rhSP-D titrated (FIG. 4D)

B1: full length recombinant human rhSP-D produced in human cell line GlycoExpress (GEX), variant Met11, (other)
chain: AEMKTYSHRTMPSACTLVMCSSVESGLPGRDGRDGREGPRGEKGDPGLPGAAGQAGMPGQAGPVGPKGDNGSVGEPGPKGDTGPSGPPGPPGVPGPAGREGPLGKQGNIGPQGKPGPKGEAGPKGEVGAPGMQGSAGARGLAGPKGERGVPGERGVPGNTGAAGSAGAMGPQGSPGARGPPGLKGDKGIPGDKGAKGESGLPDVASLRQQVEALQGQVQHLQAAFSQYKKVELFPNGQSVGEKIFKTAGFVKPFTEAQLLCTQAGGQLASPRSAAENAALQQLVVAKNEAAFLSMTDSKTEGKFTYPTGESLVYSNWAPGEPNDDGGSEDCVEIFTNGKWNDRACGEKRLVVCEF
binding result: binds
